For experiment [1], the system named is influenza A virus subtypes H3N2, H5N1, H7N7 and H7N9. The experiment in a line: Plaque assay against other influenza A subtypes in MDCK cells.
The next experiment concerns H1N1 viral NA. The experiment in a line: Binding to viral protein NA by Western blot and ELISA. To be noted: Western blot (P9 50 μg/ml) and ELISA. For orientation: Immunoblotting shows a protein as a band on a membrane.
The target in another experiment is H1N1 viral HA (Influenza A virus, UniProt C3W5S1). As to the kind of experiment: Binding to viral protein HA by Western blot and ELISA. To be noted: Western blot (P9 50 μg/ml) and ELISA.

Chains of the proteins cited; added tags and fusions are not shown.
UniProt C3W5S1, entry or part of it, added parts left off: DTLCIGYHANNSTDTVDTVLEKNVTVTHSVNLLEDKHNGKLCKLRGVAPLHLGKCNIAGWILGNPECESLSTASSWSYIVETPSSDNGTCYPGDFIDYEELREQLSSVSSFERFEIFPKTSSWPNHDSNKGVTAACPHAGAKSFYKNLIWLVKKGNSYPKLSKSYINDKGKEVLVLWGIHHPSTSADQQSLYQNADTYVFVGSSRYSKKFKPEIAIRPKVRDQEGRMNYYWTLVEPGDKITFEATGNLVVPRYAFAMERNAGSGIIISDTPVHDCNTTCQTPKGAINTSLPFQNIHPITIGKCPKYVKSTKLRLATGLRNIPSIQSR

For the molecule `CC[C@H](C)[C@H](NC(=O)[C@H](C)NC(=O)CNC(=O)[C@@H](N)CC(N)=O)C(=O)N[C@@H](CS)C(=O)N[C@@H](Cc1c[nH]c2ccccc12)C(=O)NCC(=O)N1CCC[C@H]1C(=O)N[C@@H](CS)C(=O)N1CCC[C@H]1C(=O)N[C@H](C(=O)N[C@@H](C)C(=O)N[C@@H](Cc1ccccc1)C(=O)N[C@@H](CCCNC(=N)N)C(=O)N[C@@H](CCC(N)=O)C(=O)N[C@H](C(=O)NCC(=O)N[C@@H](CC(N)=O)C(=O)N[C@@H](CS)C(=O)NCC(=O)N[C@@H](Cc1c[nH]cn1)C(=O)N[C@@H](Cc1ccccc1)C(=O)N[C@@H](CCCCN)C(=O)N[C@H](C(=O)N[C@@H](CCCNC(=N)N)C(=O)N[C@@H](CS)C(=O)N[C@@H](CS)C(=O)N[C@@H](CCCCN)C(=O)N[C@H](C(=O)N[C@@H](CCCNC(=N)N)C(=O)O)[C@@H](C)CC)C(C)C)[C@@H](C)CC)[C@@H](C)O` [Peptide P9], the “antiviral efficacies against other influenza A subtypes” value in experiment [1] is reported as “strong antiviral efficacies”. Further, the “binding to NA” value in the experiment on H1N1 viral NA is listed as “could not bind to NA”. Besides, in the experiment on H1N1 virus (P9 25 μg/ml maintained in culture media after infection, 0.3 MOI (P9-maint)), the “inhibition of virus replication and release (viral loads in cells and supernatants)” value was “no significant inhibitory effects”. Also, in the experiment on H1N1 virus (cells pretreated with P9 25 μg/ml for 1 hour, 0.3 MOI (P9-cell-pre)), the “virus infection (viral loads in cells and supernatants)” value is reported as “not inhibited”. Besides, the “viral loads inside the cells and in culture supernatants” value with H1N1 virus (virus 0.3 MOI pretreated with P9 25 μg/ml for 1 hour (P9-virus-pre)) is on record as “significantly reduced”. Further, at H1N1 viral HA, the “binding to viral surface glycoprotein HA” value is “bound to viral surface glycoprotein HA”.
